Assay: Isothermal titration calorimetry of surfactant binding to microgels

## CCCCCCCCCCCCOS(=O)(=O)[O-].[Na+] [SDS, sodium dodecyl sulfate]
ITC, microgel dispersion, 10 mM NaCl
  surfactant concentration at saturation of cationic binding sites: about 2 mmol/kg
SDS concentration exceeding about 2 mmol/kg (after saturation of cationic binding sites)
  exothermic binding heat: 0.17 to 0.19 kcal/mol
Titrated into microgel dispersion, 10 mM NaCl, below saturation
  exothermic binding heat: approximately 5 kJ/mol of added SDS

— patent US9788541B2, “Antibacterial surfactant/microgel formulations, methods of making and methods of using the same” (The University of Toledo, priority 2012, dated 2017)
